Results published in PubChem BioAssay AID602313 (National Center for Advancing Translational Sciences (NCATS), 2012).
The entries are a selection whose mix differs from that of the whole data set. Active and inactive are the calls of the source. Calls come from the whole dose curve; as a rule, active = well fitted inhibition curve with a large enough effect; inconclusive = small, poorly fitted or top-dose-only effect; inactive = flat fitted curve, though single readings scatter.

Experiment: qHTS for Inhibitors of Vif-A3F Interactions: qHTS; note: % of control where 0% means no effect; nearly all actives have a fitted effect of over 65% in size
Settings: HeLa A3F-eYFP + Vif (tagged APOBEC3F with the HIV-1 protein that degrades it), YFP fluorescence increase; at 46.1 µM (top of the series)
Method in brief: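 HeLa cells stably expressing A3F-eYFP plus Vif, plated and incubated overnight at 37 deg C, then exposed to compounds overnight at 37 deg C. Blocked degradation read as raised yellow fluorescence (Ex 488/Em 500-530).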

Row | SMILES | activity, negative = active
1 | O=[N+]([O-])c1cc([N+](=O)[O-])c(Nc2nnnn2CCO)c([N+](=O)[O-])c1 | inactive: -3.16%
2 | Cc1nc2ccc3ccccc3c2s1.O=[N+]([O-])c1cc([N+](=O)[O-])c(O)c([N+](=O)[O-])c1 | inactive: -8.03%
3 | O=[N+]([O-])c1cc([N+](=O)[O-])c(-c2cnn(-c3ccccc3)c2)c([N+](=O)[O-])c1 | inactive: 7.57%
4 | O=[N+]([O-])c1cc([N+](=O)[O-])c(-n2nnc3ccccc32)c([N+](=O)[O-])c1 | inactive: 3.88%
5 | CP(=O)(Nc1ccccn1)Oc1ccc(Cl)cc1 (stereo not drawn) | inactive: -5.96%
6 | CCOP(C)(=S)SCC(=O)NC(C)C(=O)O (stereo not drawn) | inactive: -1.04%
7 | CCOC(=O)c1ccc(NP(C)(=O)Oc2ccc(OC)cc2)cc1 (stereo not drawn) | inactive: -0.127%
8 | O=[N+]([O-])c1cc([N+](=O)[O-])c(O)c([N+](=O)[O-])c1.c1ccc(Oc2ccncc2)cc1 | inactive: -9.74%
9 | Cc1cc(C)cc(OP(C)(=O)Nc2ccc(SC(F)(F)F)cc2)c1 (stereo not drawn) | inactive: 13.4%
10 | CP(=O)(NC(=O)Nc1ccccc1)Oc1ccccc1 (stereo not drawn) | inactive: -1.4%
11 | CCc1ccc(OP(C)(=O)N2CCN(c3ccc([N+](=O)[O-])cc3)CC2)cc1 (stereo not drawn) | inactive: 0.359%
12 | CP(=O)(Oc1ccccc1)OC(c1ccccc1)C(F)(F)F (stereo not drawn) | inactive: 14.1%
13 | Cc1cccc(C)c1OP(C)(=O)Nc1ccc(SC(F)(F)F)cc1 (stereo not drawn) | inactive: 2.47%
14 | CP(=O)(Nc1ccc(SC(F)(F)F)cc1)Oc1ccc(Cl)cc1 (stereo not drawn) | inactive: -4.24%
15 | COc1ccccc1OP(C)(=O)Nc1ccccc1 (stereo not drawn) | inactive: 13%
16 | CP(=O)(Nc1ccccc1Br)Oc1ccccc1 (stereo not drawn) | inactive: 8.68%
17 | CP(=S)(Nn1cnnc1)Oc1ccccc1 (stereo not drawn) | inactive: -9.84%
18 | COc1ccc(OP(C)(=O)Nc2cccc(F)c2)cc1 (stereo not drawn) | inactive: -21.7%
19 | COc1ccccc1OP(C)(=O)Nc1cc(Cl)ccc1C (stereo not drawn) | inactive: 4.42%
20 | Cc1cc(C)cc(OP(C)(N)=O)c1 (stereo not drawn) | inactive: 5.9%
21 | CCOC(=O)c1ccc(NP(C)(=O)Oc2ccccc2)cc1 (stereo not drawn) | inactive: 1.74%
22 | Cc1ccc(NP(C)(=O)Oc2ccccc2)c(C)c1 (stereo not drawn) | inactive: -1.27%
23 | COc1ccccc1OP(C)(=O)Nc1ccc(C)cc1 (stereo not drawn) | inactive: 0.519%
24 | Cc1cccc(C)c1OP(C)(N)=O (stereo not drawn) | inactive: -1.62%
25 | CC(C)(C)c1ccc(OP(C)(=O)Nc2ccc(SC(F)(F)F)cc2)cc1 (stereo not drawn) | inactive: -5.5%
26 | O=[N+]([O-])c1ccc2c(c1)C=Nc1ccccc1O2 | inactive: 0.344%
27 | O=[N+]([O-])c1cc([N+](=O)[O-])c(Nc2cccnc2)c([N+](=O)[O-])c1 | inactive: -0.34%
28 | CCN(CC)CCCOC(=O)C(O)(c1ccccc1)c1ccccc1 | inactive: 4.72%
